Results on 1 molecule are retold here after publication PMC9499943 (2022).

Test [1] has as its target T1, His-tagged RBD (RBD-His) protein of SARS-CoV-2 (SARS-CoV-2, UniProt P0DTC2 319-541). Kind of test: BLI; RBD loaded at 200 ng/ml (avidity).
For test [2], the target named is T1, His-tagged RBD (RBD-His) protein of …. The test is described as follows: BLI; RBD loaded at 1000 ng/ml (avidity). On the technique in general: In BLI a coated tip is dipped into the sample, and binding shifts an interference pattern.

The koff is the first-order rate constant of dissociation. Read a low koff as slow dissociation.

B1: CoV2-06 (antibody, V domains shown)
VH: QVELQESGPGLVKPSGTLSLTCAVSGGSISSNNWWTWVRQPPGKGLEWIGEIHHSGGTNYNPSLKSRVTMSVDKSKNQFSLNLYSVTAADTAVYYCTRDRAGGTYSGFDFWGQGTLVTVSS
VL: QAVVTQPASVSGSPGQSITISCTGTSSDVGGYNYVSWYQQHPGKAPKLMIYDVSNRPSGVSNRFSGSKSGNTASLTISGLQAEDEADYYCSSYTSSSTVVFGGGTKVTVL
For B1, the koff in test [1] is 5.8e-05 s⁻¹; in test [2], 1.26e-05 s⁻¹.
